Compound potency records, mixed from different reports. Data source: NIAID ChemDB in PubChem.

All rows: whole-cell or culture tests; agent: Mycobacterium tuberculosis

Two numbers with a dash give a range or band. Neighbouring rows are from separate reports. ECn is the concentration giving n% inhibition of infection, replication or growth. MIC bound: limit read from a one-dose screen. Percent inhibition refers to the dose given; in toxicity tests it is the harm to the cells. Blank or dashed fields: not listed here. A number after MIC or MFC names an inhibition level or a share of isolates.

smiles | strain or isolate | endpoint | method | tested at | result
S=c1[nH]nc(-c2ccncc2)n1CCc1ccccc1 | H37Rv | MIC | - | - | >6.25 µg/mL
CC[C@@H](CO)NCCN[C@@H](CC)CO | - | MIC | - | - | 7.2 µM
NNC(=O)c1ccncc1 | H37Ra | MIC | - | - | 0.05 µg/mL
CCCCCCCCCCc1cn(CC(=O)OCC)nn1 | H37Rv | MIC | MTT / broth dilution / absorbance | - | 0.7 µM
CCN(CC)CCNc1ccc(C)c2oc3ccc(O)cc3c(=O)c12 | H37Rv | MIC bound | BACTEC | - | ≤12.5 µg/mL
O=C(NCc1ccc(N2CCN(S(=O)(=O)C(F)(F)F)C=N2)c(F)c1)c1c(C(F)F)nc2ccc(Cl)cn12 | - | EC50 | fluorescence | - | 0.00407 µM
CN(C)c1ccc(CNC23CC4CC(CC(C4)C2)C3)cc1 | - | MIC | - | - | 10 µM
CC(Nc1ccc2ccccc2c1)C(=O)NN | Drug-resistant | inhibition | - | 1 µg/mL | 100%
O=C(NN=Cc1ccc(F)cc1)c1ccc(-n2cc(-c3ccccc3)nn2)cc1O | H37Rv | MIC | resazurin | - | 3.12 µg/mL
CO[C@H]1/C=C/O[C@@]2(C)Oc3c(C)c(O)c4c(O)c(c(/C=N/N5CCN(C)CC5)c(O)c4c3C2=O)NC(=O)/C(C)=C\C=C\[C@H](C)[C@H](O)[C@@H](C)[C@@H](O)[C@@H](C)[C@H](OC(C)=O)[C@@H]1C | CSU22 | MIC | - | - | >5 µg/mL
NC(=S)Nc1ccccc1 | A67 | MIC | - | - | 1000 µM
CC1=C(C(=O)Nc2ccc(F)c(Cl)c2)C(c2cccc(Br)c2)C(C(=O)Nc2ccc(F)c(Cl)c2)=C(C)N1 | H37Rv | MIC | - | - | >6.25 µg/mL
COc1ccc(C(=O)/C=C/c2ccccc2)c(OC)c1 | H37Rv | MIC | BACTEC / radiometric | - | 12.5 µg/mL
COc1cccc(-c2cc(C(F)(F)F)nc3c(C(F)(F)F)cccc23)c1 | - | MIC | - | - | >128 µM
NC(=S)Nc1cccc([N+](=O)[O-])c1 | A67 | MIC | - | - | 250 µM
CC(=O)Nc1ccc(/C=N/NC(N)=S)cc1 | H37Ra | MIC | - | - | <0.01 µg/mL
CC1=C(C(=O)Nc2ccc(F)c(Cl)c2)C(c2cccc(Oc3ccccc3)c2)C(C(=O)Nc2ccc(F)c(Cl)c2)=C(C)N1 | H37Rv | MIC | - | - | >6.25 µg/mL
CCn1c(SCC(=O)c2ccccc2)nnc1-c1ccncc1 | H37Rv | MIC | - | - | >6.25 µg/mL
COc1ccc(-c2c(C#N)c(O)n(NS(=O)(=O)c3ccc(C)cc3)c(=O)c2C#N)cc1 | H37Rv | inhibition | resazurin | 6.25 µg/mL | -7%
O=C(Oc1ccc(C2CC(=O)c3ccc(OC(=O)c4ccccc4)cc3O2)cc1)c1ccccc1 | H37Rv | MIC | BACTEC / radiometric | - | 25 µg/mL
Cc1c(F)c(N2CCNC(C)C2)cc2c1c(=O)c(C(=O)O)cn2C1CC1 | 250 isolates | MIC90 | - | - | 1 µg/mL
C=CCN1CCCC[C@H]1[C@@H](O)c1cc(C(F)(F)F)nc2c(C(F)(F)F)cccc12 | - | MIC | - | - | 30 µM
CCC1C(=O)OC2OC(c3ccccc3)(c3ccccc3)NC21 | H37Rv | MIC bound | BACTEC | - | >12.5 µg/mL
Cc1cccc(NC(N)=S)c1 | A67 | MIC | - | - | 62.5 µM
CC(C)NC(=O)OCCN=c1c2ccccc2ccc2ccccc12 | H37Rv | MIC bound | BACTEC | - | >12.5 µg/mL
COC(=O)c1c(-c2ccc(Cl)cc2)csc1NC(=O)c1c(F)c(F)c(F)c(F)c1F | - | MIC | - | - | 3.5 µM
NNC(=O)c1ccncc1 | MDR | MIC | - | - | 100 µg/mL
CCc1nc2nc(N(C)C)c(Cl)cn2c1C(=O)NCc1ccc(N2CCN(S(=O)(=O)C(F)(F)F)C=N2)c(F)c1 | - | EC50 | fluorescence | - | 0.2 µM
COc1ccc(/C=C/C(=O)c2ccc(OC)cc2OC)cc1 | H37Rv | MIC | BACTEC / radiometric | - | >100 µg/mL
CO[C@H]1/C=C/O[C@@]2(C)Oc3c(C)c(O)c4c(O)c(c(/C=N/N5CCN(C6CCCC6)CC5)c(O)c4c3C2=O)NC(=O)/C(C)=C\C=C\[C@H](C)[C@H](O)[C@@H](C)[C@@H](O)[C@@H](C)[C@H](OC(C)=O)[C@@H]1C | CSU22 | MIC | - | - | >5 µg/mL
NCC[C@H](O)C(=O)N[C@@H]1C[C@H](N)[C@@H](O[C@H]2O[C@H](CN)[C@@H](O)[C@H](O)[C@H]2O)[C@H](O)[C@H]1O[C@H]1O[C@H](CO)[C@@H](O)[C@H](N)[C@H]1O | H37Ra | MIC | - | - | 2.5 µg/mL
OC(CCN1CC2CCC(CC2)C1)(Cc1ccccc1)c1cccs1 | H37Rv | inhibition | - | 6.25 µg/mL | 10%
C=Cc1ccc(C(=O)Nc2nnc(-c3ccc4c(c3)CCCC4)o2)cc1 | H37Rv | EC90 | agar | - | 1.68 µg/mL
O=c1[nH]c(N2CCN(c3ccccc3)CC2)nc2cc3ccccc3cc12 | H37Rv | inhibition | resazurin | 6.25 µg/mL | 25%
O=C(N=Nc1c(O)[nH]c2ccccc12)c1ccc(-n2cc(-c3ccccc3)nn2)cc1O | H37Rv | MIC | resazurin | - | 12.5 µg/mL
COC(=O)C1=C(C)N(c2ccc(OC)cc2)C(C)=C(C(=O)OC)C1c1ccc(Cl)cc1 | H37Rv | MIC | - | - | >6.25 µg/mL
CCCC[P+](c1ccccc1)(c1ccccc1)c1ccccc1 | H37Ra | MIC | broth dilution | - | >128 µg/mL
CN1C(=O)C23SSC1(C)C(=O)N2c1ccccc1C3(C)C | H37Rv | MIC | BACTEC | - | 0.2 µg/mL
O=C(NN=Cc1ccc2c(c1)OCO2)c1ccc(-n2cc(-c3ccccc3)nn2)cc1O | H37Rv | MIC | resazurin | - | 12.5 µg/mL
O=C(O)c1ccc(CN2CCCC[C@H]2[C@@H](O)c2cc(C(F)(F)F)nc3c(C(F)(F)F)cccc23)cc1 | - | MIC | - | - | 63 µM
CC1=C(C(=O)Nc2cc(C)ccc2C)C(c2ccc([N+](=O)[O-])cc2)C(C(=O)Nc2cc(C)ccc2C)=C(C)N1 | H37Rv | MIC | - | - | >6.25 µg/mL
CSc1ccc2nc(Nc3nc4ccc(NC(C)=O)cc4s3)sc2c1 | H37Rv | EC90 | agar | - | <0.2 µg/mL
CN1C(=O)C23CCCN2C(=O)C1(C)SC(=O)S3 | H37Rv | MIC bound | BACTEC | - | >12.5 µg/mL
C[C@H]1COc2c(N3CCN(C)CC3)c(F)cc3c(=O)c(C(=O)O)cn1c23 | 206 isolates (susceptible) | MIC90 | - | - | 1 µg/mL
CCc1nc2ncccn2c1C(=O)NCc1ccc(N2CCN(S(=O)(=O)C(F)(F)F)C=N2)cc1 | - | EC50 | fluorescence | - | 0.079 µM
O=C1CC(c2ccc(O)cc2)Oc2cc(O)ccc21 | H37Rv | MIC | BACTEC / radiometric | - | 25 µg/mL
O=C(N=Nc1c(O)[nH]c2ccc(S(=O)(=O)O)cc12)c1ccc(-n2cc(-c3ccccc3)nn2)cc1O.[Na+] | H37Rv | MIC | resazurin | - | >25 µg/mL
Cc1cn([C@H]2C=C[C@@H](COC(=O)CN3CCN(c4cc5c(cc4F)c(=O)c(C(=O)O)cn5C4CC4)CC3)O2)c(=O)[nH]c1=O | H37Rv | EC50 | - | - | <6.25 µg/mL
N[C@@H]1CONC1=O | H37Ra | MIC | - | - | 50 µg/mL
CC(/C=C/[C@H](C)C(C)C)[C@H]1CC[C@@H]2[C@]1(C)CC[C@H]1[C@]23C=C[C@]2(C[C@@H](O)CC[C@]12C)O3 | H37Rv | MIC | - | - | 1 µg/mL
O=C(NCc1ccc(N2CCN(S(=O)(=O)C(F)(F)F)C=N2)c(F)c1)c1c(C(F)F)nc2cnccn12 | - | EC50 | fluorescence | - | 0.0646 µM
O=C1NC(=O)C(O)(C2=C(O)CCC2=O)C(=O)N1 | H37Rv | inhibition | BACTEC | 12.5 µg/mL | 13%
COc1ccc(OC)c(C2C(C(=O)Nc3ccc(F)c(Cl)c3)=C(C)NC(C)=C2C(=O)Nc2ccc(F)c(Cl)c2)c1 | H37Rv | MIC | - | - | >6.25 µg/mL
CC(/C=C/[C@H](C)C(C)C)[C@H]1CC[C@H]2C3=CC=C4C[C@@H](O)CC[C@]4(C)C3=CC[C@]12C | H37Rv | MIC | - | - | 128 µg/mL
Fc1ccc(-n2c(-c3ccncc3)n[nH]c2=S)cc1 | H37Rv | inhibition | - | 6.25 µg/mL | 2%
COc1cc(C2(c3ncc[nH]3)S[C@@H](c3c(/C(=N/O)C(=O)O)[nH]c4ccccc34)SC[C@H]2O)ccc1O | H37Rv | inhibition | - | 12.5 µg/mL | 10%
CCc1nc2ncc(Cl)cn2c1C(=O)NCc1ccc(N2CCC(S(=O)(=O)C(F)(F)F)C=N2)cc1 | - | EC50 | fluorescence | - | 0.004 µM
NNC(=O)CNc1ccc2ccccc2c1 | H37Rv | inhibition | - | 1 µg/mL | 100%
Cc1ccc(NC(N)=S)cc1N | A67 | MIC | - | - | 1000 µM
CCc1nc2c(F)cc(F)cn2c1C(=O)NCc1ccc(N2CCN(S(=O)(=O)C(F)(F)F)C=N2)c(F)c1 | - | EC50 | fluorescence | - | 0.0038 µM
CC1(C)Nc2cccc3cccc(c23)N1 | H37Rv | MIC | BACTEC | - | ≥12.8 µg/mL
O=C(/C=C/c1ccc(O)cc1)c1ccc(O)cc1O | H37Rv | MIC | BACTEC / radiometric | - | 25 µg/mL
CC1=C(C(=O)Nc2cc(C)ccc2C)C(c2ccc(Cl)cc2)C(C(=O)Nc2cc(C)ccc2C)=C(C)N1 | H37Rv | MIC | - | - | >6.25 µg/mL
CCCC(O)CCC(O)=C1C(=O)CCC1=O | H37Rv | inhibition | BACTEC | 12.5 µg/mL | 13%
NNC(=O)c1ccncc1 | 5178 | MIC | - | - | 0.04–0.05 µg/mL
CCOP(=O)(OCC)/C(C#N)=C\c1cccn1C | H37Rv | inhibition | BACTEC | 12.5 µg/mL | 0%
Cc1cn([C@H]2C=C[C@@H](COC(=O)CNNC(=O)c3ccncc3)O2)c(=O)[nH]c1=O | H37Rv | EC50 | - | - | <6.25 µg/mL
O[C@@H](c1cc(C(F)(F)F)nc2c(C(F)(F)F)cccc12)[C@@H]1CCCCN1Cc1ccncc1 | - | MIC | - | - | 22 µM
COc1cc(OC)c(C(=O)C(Br)C(Br)c2ccccc2)cc1Br | H37Rv | MIC | BACTEC / radiometric | - | 25 µg/mL
Cc1onc(-c2ccccc2)c1C(C)(O)c1ccccc1 | H37Rv | inhibition | - | 6.25 µg/mL | 6%
NC(=S)Nc1cccc(N)c1 | A67 | MIC | - | - | 500 µM
NC(=O)c1c(NC(=O)c2c(F)c(F)c(F)c(F)c2F)sc2c1CCCCC2 | - | MIC | - | - | 15.3 µM
C(=N\Nc1nnc2c3cccnc3c3ccccc3c2n1)/c1ccc2c(c1)OCO2 | H37Rv | MIC bound | BACTEC | - | >12.5 µg/mL
O=C(/C=C/c1c[nH]c2ccccc12)c1ccc(Cl)cc1 | H37Rv | MIC | BACTEC / radiometric | - | >100 µg/mL
CC1(C)OC2OC(COC(=O)c3ccc([N+](=O)[O-])cc3)C(NC(=O)C(F)(F)F)C2O1 | H37Rv | MIC bound | BACTEC | - | >12.5 µg/mL
NC(=S)Nc1c(O)cccc1O | A67 | MIC | - | - | 2 µM
NC(=O)C(Cc1ccc(O)cc1)NC(=O)c1cccnc1 | H37Rv | inhibition | BACTEC | 12.5 µg/mL | 27%
CC[C@H](C)[C@H]1OC(=O)[C@H](C(C)C)N(C)C(=O)[C@@H]([C@@H](C)CC)OC(=O)[C@H](C(C)C)N(C)C(=O)[C@@H]([C@@H](C)CC)OC(=O)[C@H](C(C)C)NC1=O | H37Ra | MIC | resazurin | - | 1.07 µM
Cn1c(=O)c2nc3c4ccccc4c(=O)n(C)c3nc2n(C)c1=O | H37Rv | MIC bound | BACTEC | - | >12.5 µg/mL
FC(F)(F)c1cc(-n2ccnc2)c2cccc(C(F)(F)F)c2n1 | - | MIC | - | - | >128 µM
O=[N+]([O-])c1ccc(-c2csc(=[N+]3CCCCC3)s2)cc1 | H37Rv | MIC bound | resazurin | - | >6.25 µg/mL
COc1ccc(C(=O)/C=C/c2ccc(C(C)C)cc2)c(OC)c1 | H37Rv | MIC | BACTEC / radiometric | - | 25 µg/mL
CCC1CN(c2c(F)cc3c(=O)c(C(=O)O)cn(C4CC4)c3c2OC)CCN1 | Isolate TN1865 | MIC | - | - | 0.3 µg/mL
O=C1C=C(c2ccccc2)OC1(c1ccccc1)N1CCOCC1 | H37Rv | inhibition | BACTEC | 12.5 µg/mL | 2%
Cc1ccccc1NC(N)=S | A67 | MIC | - | - | 125 µM
Cc1cc(=O)c2c(O)cc3c(c2o1)CC=C(COC1OC(COC2OC(CO)C(O)C(O)C2O)C(O)C(O)C1O)CO3 | H37Rv | inhibition | BACTEC | 12.5 µg/mL | 20%
O=C(NN=Cc1c(Cl)cccc1Cl)c1ccc(-n2cc(-c3ccccc3)nn2)cc1O | H37Rv | MIC | resazurin | - | 3.12 µg/mL

The last 6 rows once more:

smiles	strain or isolate	endpoint	method	tested at	result
COc1ccc(C(=O)/C=C/c2ccc(C(C)C)cc2)c(OC)c1	H37Rv	MIC	BACTEC / radiometric	-	25 µg/mL
CCC1CN(c2c(F)cc3c(=O)c(C(=O)O)cn(C4CC4)c3c2OC)CCN1	Isolate TN1865	MIC	-	-	0.3 µg/mL
O=C1C=C(c2ccccc2)OC1(c1ccccc1)N1CCOCC1	H37Rv	inhibition	BACTEC	12.5 µg/mL	2%
Cc1ccccc1NC(N)=S	A67	MIC	-	-	125 µM
Cc1cc(=O)c2c(O)cc3c(c2o1)CC=C(COC1OC(COC2OC(CO)C(O)C(O)C2O)C(O)C(O)C1O)CO3	H37Rv	inhibition	BACTEC	12.5 µg/mL	20%
O=C(NN=Cc1c(Cl)cccc1Cl)c1ccc(-n2cc(-c3ccccc3)nn2)cc1O	H37Rv	MIC	resazurin	-	3.12 µg/mL